In patent US12723063B2 (Eli Lilly and Company, priority 2019, dated 2026):

Experiment: general procedure: Fmoc solid-phase peptide synthesis; aminomethyl polystyrene with Rink Amide linker (polystyrene AM RAM, RAPP), 0.8 mmol/g; diisopropylcarbodiimide/Oxyma; PyBOP/diisopropylethylamine for the fatty diacid
Conditions: whole synthesis, analytical RP-HPLC, TFA salt

Y-(D-Ala)-EGTFISDYSILLDKK((2-[2-(2-Amino-ethoxy)-ethoxy]-acetyl)2-(γ-Glu)-CO—(CH2)18—CO2H)AQ-Aib-DFVNWLLAQGPSSGAPPPS-NH2
final HPLC purity: 96.8%
